PubChem BioAssay AID1259414, Drosophila RNAi Screening Center, 2018
Aim: 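Genome-wide screen for host control of endosymbiont load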 (primary screen). System: Drosophila JW18 cells infected with Wolbachia. Reagent: long dsRNA against Drosophila genes, 0.25 µg dsRNA per well of a 384-well plate. Timing: 5 days. Treatment: cells persistently infected with Wolbachia before knock-down; no added drug. Measurement: 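Automated imaging of bacterial rRNA staining divided by host cell count, reported as plate-normalised robust z-score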. Reading the numbers: Wolbachia per cell robust z: higher = more Wolbachia per host cell than the plate typical. Hit rule: 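Active if absolute robust z reaches 1.5 in two or more of three replicates, leaving out multi- or no-target dsRNAs, genes unexpressed in JW18 and A1 wells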.
The deposit covers about 24,000 reagents; shown is an unselected part of those that have a named target and a result. Over the whole deposit, about 1,210 (5%) are marked active. 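Inactive calls also include excluded dsRNAs with several or no targets, genes unexpressed in JW18, and well A1, regardless of score.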 Unmarked entries are inactive. Reagent sequences are not shown.

no.	gene	amplicon	Wolbachia per cell robust z, rep 1	Wolbachia per cell robust z, rep 2	Wolbachia per cell robust z, rep 3
1	Ercc1	DRSC07424	1.42	0.138	0.442
2	Nup50	DRSC06827	-0.0519	-0.323	-0.00666
3	Nup50	DRSC26470	0.0563	0.318	-3.42
4	CG1636	DRSC18111	0.0725	1.02	1.06
5	CG12974	DRSC11684	0.138	0.253	-4.93
6	CG15160	DRSC02461	0.435	0.00968	1.61
7	CG15160	DRSC27129	0.665	-0.86	0.0141
8	Got1	DRSC07177	-1.03	0.861	0.117
9	Got1	DRSC26159	-0.468	-0.522	-0.612
10	Alp13	DRSC15781	-0.214	1.25	-0.143
11	CG17712	DRSC00266	0.59	0.734	0.0462
12	ec	DRSC18658	-5.21	-1.66	-0.732
13	ec	DRSC23902	-0.0168	1.02	0.907
14	CG33521	DRSC17211	-3.1 (active)	-2.36	0.292
15	CG33521	DRSC22919	0.032	-0.189	-0.107
16	CG33521	DRSC29186	-0.565	-0.793	0.194
17	CG33769	DRSC11716	-0.334	0.415	0.323
18	CG42366	DRSC02760	1.43	1.15	0.712
19	CG42366	DRSC23297	-3.98	-0.614	-0.771
20	mus301	DRSC10939	-0.265	0.387	0.645
21	bb8	DRSC15578	0.412	0.642	-0.00179
22	Ugt307A1	DRSC02138	-0.248	-1.51	-0.751
23	ouib	DRSC14376	0.458	0.0265	-0.222
24	fd59A	DRSC04685	-0.319	0.0909	0.181
25	fd59A	DRSC25524	0.363	-8.83	0.619
26	Atg7	DRSC05741	0.858	0.907	0.696
27	Atg7	DRSC06937	1.11	-1.63	0.00493
28	CG15169	DRSC02470	0.468	0.0275	-0.069
29	Gr59c	DRSC04185	0.134	-5.35	-0.539
30	CG13685	DRSC10043	-1.83 (active)	-1.12	-5.12
31	CG13685	DRSC30064	0.308	0.128	0.81
32	CG16741	DRSC06622	-0.359	-0.92	-0.00806
33	CG16741	DRSC24117	-2.2	-1.28	-2.77
34	CG32708	DRSC18411	-1.59	-0.341	-0.906
35	CG32708	DRSC28419	-0.187	2.01	-0.0666
36	CG32344	DRSC08578	-0.389	-0.134	0.465
37	CG14636	DRSC12223	-1.71	0.233	-0.331
38	CG14636	DRSC28578	1.85	-1.23	-2.19
39	Tango10	DRSC19807	-5.08	-0.372	-0.641
40	Tango10	DRSC26535	0.139	-1.1	0.746
41	Upf2	DRSC18218	-0.252	0.526	0.964
42	Upf2	DRSC27785	0.392	1.97	0.79
43	CG9636	DRSC16529	-0.863	-0.26	0.113
44	CG14205	DRSC19560	0.0891	0.59	1.18
45	CG14205	DRSC28253	1.11	1.33	0.738
46	CG14205	DRSC39005	1.05	0.634	-0.524
47	levy	DRSC04289	1.05	0.352	-0.255
48	CG13108	DRSC02206	-0.441	-0.746	-0.874
49	fan	DRSC10930	0.282	-0.26	0.0624
50	CG4716	DRSC06884	-0.405	0.499	-1.37
51	CG4716	DRSC26611	0.733	0.102	-6.34
52	CG11257	DRSC06068	0.577	0.553	0.0303
53	CG11257	DRSC41517	0.163	-2.79	0.167
54	CG15043	DRSC19619	-0.205	-0.233	0.547
55	CG15043	DRSC29563	1.1	0.902	0.804
56	Sema5c	DRSC11279	1.43	0.212	1.03
57	Sema5c	DRSC26621	-1.34	-1.78	-0.878
58	CG10352	DRSC19353	-1.14	-0.619	-0.434
59	CG10352	DRSC41392	-1.92	0.347	-1.95
60	CG11723	DRSC00324	1.16	-0.27	-1.28
61	CG11723	DRSC24890	0.0137	0.267	0.304
62	CG17270	DRSC15209	1.2	-0.214	-1.98
63	CG42489	DRSC40653	0.674	-2.24	-0.328
64	CG31612	DRSC03697	-2.86 (active)	-1.91	-0.326
65	CG31612	DRSC03698	0.0103	1.2	-3.91
66	Sar1	DRSC17049	-1.14	-7.88	-0.697
67	Sar1	DRSC22115	0.243	0.258	0.707
68	Sar1	DRSC24141	1.5 (active)	5.56	5.07

8 of these entries, reformatted:
gene,amplicon,"Wolbachia per cell robust z, rep 1","Wolbachia per cell robust z, rep 2","Wolbachia per cell robust z, rep 3"
CG1636,DRSC18111,0.0725,1.02,1.06
CG12974,DRSC11684,0.138,0.253,-4.93
CG15160,DRSC02461,0.435,0.00968,1.61
CG15160,DRSC27129,0.665,-0.86,0.0141
Got1,DRSC07177,-1.03,0.861,0.117
Got1,DRSC26159,-0.468,-0.522,-0.612
Alp13,DRSC15781,-0.214,1.25,-0.143
CG17712,DRSC00266,0.59,0.734,0.0462
